# Measured values published in patent publication US11766420B2 (priority 2015, dated 2023).
# Columns and labels:
# [1] = tested on: HEK293T cells stably transfected with human APP; experiment: Aβ42 secretion detected in HEK293T-APP cells (ELISA of culture medium); format: cell-based
# Aβarc flies = experiment: ELISA quantification of Aβ42 in Aβarc flies; details: Aβarc flies after treatment
# [2] = tested on: Aβarc-expressing third instar larvae; details: dissected Aβarc-expressing third instar larvae, 8 h
# APP = details: HEK293T-APP cells, different concentrations
# APP/PS1 mice [3] = experiment: Morris Water Maze in APP/PS1 mice gavaged with PAO; details: 4 month-age APP/PS1 mice, gavage 0.1, 0.3, 1.0 mg/kg, 6 weeks; most notably at 0.3 mg/kg
# APP/PS1 mice [4] = experiment: ELISA of Aβ42 in CSF and fractionated brain membrane of APP/PS1 mice; details: TBS with 1% Triton or 1% SDS extracts; most notably at 0.3 mg/kg
structure (smiles),measurement,setting,value
O=[As]c1ccccc1 (centres unmarked),Aβ42 concentration in culture medium in the presence of DAPT,"[1]; DAPT (1 μM), γ secretase inhibitor",increases Aβ42 concentration in culture medium under the presence of DAPT
same,Low concentration at which the effect on Aβ42 secretion is still stable,[1]; FIG. 16,1.0 nM
same,Aβ42 concentration in culture medium,[1]; treatment in culture medium,increasing Aβ42 concentration in culture medium
same,Amount of Aβ42 (ELISA),Aβarc flies,significantly decreased
same,Aβ42 secretion into medium,[2],facilitates Aβ42 secretion and exhibits a tendency of drug dose dependency
same,APP level,APP,"without affecting the activities of α, β, and γ secretase which cleaves APP (FIG. 14 panel a) or causing an increase of APP level"
same,Impairment of spatial learning and memory abilities (water maze),APP/PS1 mice [3],significantly reduced
same,Aβ42 level in brain membrane,APP/PS1 mice [4],unexpectedly increased the Aβ42 level in brain membrane
